Anti-infective test results gathered from many reports (values: NIAID ChemDB through PubChem).

All rows: whole-cell or culture tests; species: Human cytomegalovirus; cells: HFF; measure: EC50

ECn is the concentration giving n% inhibition of infection, replication or growth. Lines come from different laboratories, so protocols vary.

structure	strain or isolate	method	value
C[C@@H]1O[C@@H](n2c(Cl)nc3cc(Cl)c(Cl)cc32)[C@H](O)[C@@H]1O	TOWNE	plaque count	0.66 µM
CCCCCCCCCCCCOCCCOP(=O)(O)CO[C@H](CO)Cn1ccc(N)nc1=O	759rD100	plaque count	0.002 µM
Nc1ncnc2c1ncn2C=C1CC1CO	AD169	plaque count	2.1 µM
Nc1nc2c(ncn2COC(CO)CO)c(=O)[nH]1	C9208/3-3-1	plaque count	2.2 µM
CC(C)Nc1nc2cc(Cl)c(Cl)cc2n1[C@H]1O[C@@H](CO)[C@H](O)[C@@H]1O	TOWNE	virus yield	<0.3 µM
Nc1nc(Cl)c2ncn(/C=C3/C[C@H]3CO)c2n1	AD169	plaque count	6.9 µM
OC[C@H]1O[C@@H](n2c(Br)nc3cc(Cl)c(Cl)cc32)[C@H](O)[C@@H]1O	C4 (BDCRB- maribavir-resistant)	plaque count	37.7 µM
O[C@@H]1[C@H](O)[C@H](O)CO[C@H]1n1c(Br)nc2cc(Cl)c(Cl)cc21	AD169	plaque count	2.2 µM
CCCCCCCC/C=C\CCCCCCCOCCCOP(=O)(O)CO[C@H](CO)Cn1ccc(N)nc1=O	1117-R	plaque count	0.005 µM
OC[C@@H]1O[C@@H](n2c(Cl)nc3cc(Cl)c(Cl)cc32)[C@H](O)[C@@H]1O	D10 (BDCRB- and maribavir-resistant)	plaque count	56 µM
OC[C@H]1O[C@@H](n2c(Br)nc3cc(Cl)c(Cl)cc32)[C@H](O)[C@@H]1O	AD169	virus yield	<2 µM
OC[C@H]1O[C@@H](n2c(Br)nc3cc(Cl)c(Cl)cc32)[C@H](O)[C@@H]1O	C9208/5-4-2	plaque count	0.8 µM
CCCCCCCCCCCCCCCCCCOC[C@H](COP(=O)(O)CO[C@H](CO)Cn1ccc(N)nc1=O)OCc1ccccc1	1117-R	plaque count	0.01 µM
Nc1ncnc2c1ncn2/C=C1/C[C@H]1CO	AD169	cytopathic effect	1.9 µM
OC[C@H]1O[C@@H](n2c(Br)nc3cc(Cl)c(Cl)cc32)[C@H](O)[C@@H]1O	Isolate D10 (D344E mutation)	plaque count	7.3 µM
Nc1ccn(C[C@@H](CO)OCP(=O)(O)O)c(=O)n1	Toledo	plaque count	1.9 µM
Cn1cc(C(=O)NCc2ccc(Cl)cc2)c(=O)c2cc(CN3CCOCC3)ccc21	EC	plaque count	4.7 µM
Nc1nc2c(ncn2/C=C2/CC2(CO)CO)c(=O)[nH]1	DAVIS	plaque count	1 µM
Nc1nc(NC2CC2)c2ncn(C=C3CC3CO)c2n1	EC	plaque count	2.2 µM
CCCCCCCC/C=C\CCCCCCCCOCCOP(=O)(O)CO[C@H](CO)Cn1ccc(N)nc1=O	VR4955 (foscarnet-resistant)	plaque count	0.01 µM
O[C@@H]1[C@H](O)CO[C@H]1n1c(Cl)nc2cc(Cl)c(Cl)cc21	R56 (BDCRB- maribavir-resistant)	plaque count	5.3 µM
Nc1nc2c(ncn2COC(CO)CO)c(=O)[nH]1	MAJOR	plaque count	4.8 µM
CCCCCCCCCCCCCCCCOP(=O)(O)CO[C@H](CO)Cn1ccc(N)nc1=O	TOWNE	plaque count	0.006 µM
Nc1nc2c(ncn2C=C2CC2CO)c(=O)[nH]1	Toledo	plaque count	8.6 µM
O=C(NCc1ccc(Cl)cc1)c1cn2c3c(cc(CN4CCOCC4)cc3c1=O)OC(c1cccnc1)C2	1117/R (CDV GCV-resistant)	plaque count	1.5 µM